Pooled drug test results. Numbers come from NIAID ChemDB, via PubChem.

Shared fields: target-level tests; organism: HIV-1; protein: Protease

ICn: concentration for n% inhibition. An empty or dashed field is not shown. Lines come from different laboratories, so protocols vary.

COC(=O)N[C@H](C(=O)N[C@@H](Cc1ccccc1)[C@@H](O)CN(Cc1ccc(-c2ccccn2)cc1)NC(=O)[C@@H](NC(=O)OC)C(C)(C)C)C(C)(C)C ; strain or isolate: WT ; endpoint: Ki ; read by: FRET ; value: 0.000046 µM
CC(C)(C)NC(=O)[C@@H]1CCCN1C(=O)[C@@H](O)[C@H](Cc1ccccc1)NC(=O)[C@H](CC(N)=O)NC(=O)OCC1c2ccccc2-c2ccccc21 ; endpoint: IC50 ; value: 0.045 µM
CCCCNC(=O)[C@H](C)C[C@H](O)[C@H](CC1CCCCC1)NC(=O)[C@@H](NC(=O)[C@H](CCCN=C(N)N)NC(=O)OC(C)(C)C)C(C)C ; endpoint: Ki ; value: 0.075 µM
CC(C)(C)OC(=O)[C@H]1CCON1C1(C)OC(C)(C(O)CO)C2OC(C)(C)OC21 ; endpoint: IC50 ; read by: substrate cleavage / HPLC ; value: >50 µM
CC(C)(C)OC(=O)N[C@@H](Cc1ccccc1)[C@H](O)CNC[C@@H](O)[C@H](CC1CCCCC1)NC(=O)OC(C)(C)C ; endpoint: IC50 ; setting: pH 5.5 ; read by: HPLC ; value: <10 µM
CSC[C@H](NC(=O)COc1cccc2ccccc12)C(=O)N[C@@H](Cc1ccccc1)[C@H](O)C(=O)N1CSC[C@H]1C(=O)NC(C)(C)C ; endpoint: IC50 ; value: 0.0032 µM
CC(C)(C)NC(=O)[C@@H]1CCCN1C(=O)C(=O)C(Cc1ccccc1)NC(=O)OCc1ccccc1 ; endpoint: Ki ; value: 0.2 µM
COc1ccc(S(=O)(=O)N(CC2CCCC2)C[C@@H](O)CN2C(=O)[C@@H](Cc3ccccc3)C[C@@H]2Cc2ccccc2)cc1 ; endpoint: Ki ; value: 0.005 µM
CC(C)(C)N[C@@H](Cc1ccccc1)C(=O)N[C@@H](Cc1ccccc1)[C@H](O)CNC[C@@H](O)[C@H](Cc1ccccc1)NC(=O)[C@H](Cc1ccccc1)NC(C)(C)C ; endpoint: IC50 ; setting: pH 5.5 ; read by: HPLC ; value: >10 µM
O=C(N[C@@H](Cc1ccccc1)[C@@H](O)CN(Cc1ccc(-c2ccccn2)cc1)NC(=O)[C@@H]1CN(c2ccccc2)C(=O)O1)[C@@H]1CN(c2ccccc2)C(=O)O1 ; endpoint: Ki ; read by: FRET ; value: 0.3 µM
O=C(O)C1Cc2cc3c(cc2C(O)C1CO)OCO3 ; endpoint: IC50 ; read by: substrate cleavage / HPLC ; value: >50 µM
COc1ccc(C(CC(C)=O)c2c(O)c3cccc(C(C)C)c3oc2=O)cc1 ; endpoint: IC50 ; value: 25 µM
CC(C)(C)NC(=O)[C@H]1N(C(=O)[C@@H](O)[C@H](Cc2ccccc2)NC(=O)[C@H](CC(N)=O)NC(=O)OCc2ccccc2)CSC1(C)C ; endpoint: IC50 ; value: 0.0035 µM
O=C(N[C@H](CO)[C@H](O)c1ccc([N+](=O)[O-])cc1)C(Cl)Cl ; endpoint: IC50 ; read by: substrate cleavage / HPLC ; value: >50 µM
CC(C)[C@H](NC(=O)OCc1ccccc1)C(=O)N[C@@H](Cc1ccccc1)[C@@H](O)[C@H](O)[C@H](Cc1ccccc1)NC(=O)[C@@H](NC(=O)OCc1ccccc1)C(C)C ; endpoint: Ki ; value: 0.001 µM
CC(C)(C)OC(=O)N[C@@H](COc1ccccc1)[C@@H](O)[C@H](O)[C@H](Cc1ccccc1)NC(=O)OC(C)(C)C ; endpoint: Ki ; read by: absorbance ; value: 0.073 µM
COc1ccc(C(=O)O[C@H]2[C@@H](OC)OC[C@H](O)[C@@H]2O)cc1 ; endpoint: IC50 ; read by: substrate cleavage / HPLC ; value: >50 µM
CCCCNC(=O)[C@H](C)C[C@H](O)[C@H](CC1CCCCC1)NC(=O)[C@@H](NC(=O)[C@H](Cc1c[nH]c2ncccc12)NC(=O)OC(C)(C)C)C(C)C ; endpoint: Ki ; value: 0.067 µM
CC[C@H](C)[C@H](NC(=O)[C@@H]1CCCN1C(=O)C(=O)C(Cc1ccccc1)NC(=O)OCc1ccccc1)C(=O)N[C@@H](CCC(N)=O)C(=O)OC(C)(C)C ; endpoint: Ki ; value: 0.15 µM
CC(C)(C)NC(=O)[C@H]1N(C(=O)[C@@H](O)[C@H](Cc2ccccc2)NC(=O)[C@H](CC(N)=O)NC(=O)OCc2ccccc2)CCC1(C)C ; endpoint: IC50 ; value: 0.024 µM
O=c1oc2ccccc2c(O)c1Cc1c(O)c2ccccc2oc1=O ; endpoint: IC50 ; read by: substrate cleavage / HPLC ; value: >50 µM
COc1ccccc1C(Cc1c(O)c2ccccc2oc1=O)C(C)=O ; endpoint: IC50 ; value: 9.1 µM
CC(C)(C)OC(=O)[C@@H]1CCCN1C[C@@H](O)[C@H](Cc1ccccc1)NC(=O)[C@H](CC(N)=O)NC(=O)c1ccc2ccccc2c1 ; endpoint: IC50 ; read by: absorbance ; value: 0.05 µM
CO/N=C(/C(=O)N[C@@H](Cc1ccccc1)[C@H](O)CNC[C@@H](O)[C@H](Cc1ccccc1)NC(=O)OC(C)(C)C)C(C)(C)C ; endpoint: IC50 ; setting: pH 5.5 ; read by: HPLC ; value: >10 µM
CC(=O)CC(c1ccccc1)c1c(O)c2ccc(C)c(C)c2oc1=O ; endpoint: IC50 ; value: 1.9 µM
CC(C)(C)OC(=O)N[C@@H](Cc1ccccc1)[C@H](O)CNC[C@@H](O)[C@H](Cc1ccccc1)NC(=O)C(NC(=O)OCc1ccccc1)C(C)(C)CO ; endpoint: IC50 ; setting: pH 5.5 ; read by: HPLC ; value: <10 µM
CC(=O)C(Cc1c(O)c2cccc(C)c2oc1=O)c1ccccc1 ; endpoint: IC50 ; value: 22 µM
CC(C)(C)NC(=O)[C@@H]1Cc2ccccc2CN1C(=O)[C@@H](O)[C@H](Cc1ccccc1)NC(=O)[C@H](CC(N)=O)NC(=O)OCc1ccccc1 ; endpoint: IC50 ; value: >1 µM
CCCCNC(=O)[C@H](C)C[C@H](O)[C@H](CC1CCCCC1)NC(=O)[C@@H](NC(=O)[C@H](CCCN)NC(=O)OC(C)(C)C)C(C)C ; endpoint: Ki ; value: 0.011 µM
CC(C)(C)OC(=O)N[C@@H](Cc1ccccc1)[C@H](O)CNC[C@@H](O)[C@H](Cc1cccc(O)c1)NC(=O)OC(C)(C)C ; endpoint: IC50 ; setting: pH 5.5 ; read by: HPLC ; value: <10 µM
CCC(C)[C@H](NC(=O)[C@@H](C[C@H](O)[C@H](CC1CCCCC1)NC(=O)C(CC(N)=O)NC(=O)c1ccc2ccccc2n1)C(C)C)C(=O)O ; endpoint: Ki ; value: >1 µM
O=C(N[C@H]1c2ccccc2C[C@H]1O)[C@H](Cc1ccccc1)C[C@H](O)CN1C(=O)[C@@H](Cc2ccccc2)C[C@@H]1Cc1ccccc1 ; endpoint: Ki ; value: 0.00005 µM
O=C(N[C@@H](Cc1ccccc1)[C@@H](O)C[C@H](Cc1ccccc1)NC(=O)[C@@H]1CN(c2cccc(C(F)(F)F)c2)C(=O)O1)OCc1cccnc1 ; mutations: Q7K ; endpoint: Ki ; read by: substrate cleavage / FRET ; value: 0.04109 µM
CC(C)(C)OC(=O)N[C@@H](Cc1ccccc1)[C@H](O)CNC[C@@H](O)[C@H](Cc1ccccc1)NC(=O)[C@@H](O)C(C)(C)C ; endpoint: IC50 ; setting: pH 5.5 ; read by: HPLC ; value: <10 µM
CSC[C@H](NC(=O)COc1cccc2ccccc12)C(=O)N[C@@H](Cc1ccccc1)[C@H](O)C(=O)N1CSC(C)(C)[C@H]1C(=O)NC(C)(C)C ; endpoint: IC50 ; value: 0.0027 µM
COc1ccc(C(Cc2c(O)c3cccc(C)c3oc2=O)C(C)=O)cc1 ; endpoint: IC50 ; value: 36 µM
CCCCNC(=O)[C@H](C)C[C@H](O)[C@H](CC1CCCCC1)NC(=O)[C@@H](NC(=O)[C@H](Cc1cccc2ccccc12)NC(=O)OC(C)(C)C)C(C)C ; endpoint: Ki ; value: 0.115 µM
COc1ccc(C(CC(C)=O)c2c(O)c3cc(C)ccc3oc2=O)cc1 ; endpoint: IC50 ; value: >200 µM
CC(C)(C)NC(=O)[C@@H]1CCCN1C(=O)[C@@H](O)[C@H](Cc1ccccc1)NC(=O)[C@H](CC(N)=O)NC(=O)OCc1cccc2ccccc12 ; endpoint: IC50 ; value: 0.024 µM

The last 6 rows once more:

smiles	strain or isolate	mutations	endpoint	setting	read by	value
CC(C)(C)OC(=O)N[C@@H](Cc1ccccc1)[C@H](O)CNC[C@@H](O)[C@H](Cc1ccccc1)NC(=O)[C@@H](O)C(C)(C)C	-	-	IC50	pH 5.5	HPLC	<10 µM
CSC[C@H](NC(=O)COc1cccc2ccccc12)C(=O)N[C@@H](Cc1ccccc1)[C@H](O)C(=O)N1CSC(C)(C)[C@H]1C(=O)NC(C)(C)C	-	-	IC50	-	-	0.0027 µM
COc1ccc(C(Cc2c(O)c3cccc(C)c3oc2=O)C(C)=O)cc1	-	-	IC50	-	-	36 µM
CCCCNC(=O)[C@H](C)C[C@H](O)[C@H](CC1CCCCC1)NC(=O)[C@@H](NC(=O)[C@H](Cc1cccc2ccccc12)NC(=O)OC(C)(C)C)C(C)C	-	-	Ki	-	-	0.115 µM
COc1ccc(C(CC(C)=O)c2c(O)c3cc(C)ccc3oc2=O)cc1	-	-	IC50	-	-	>200 µM
CC(C)(C)NC(=O)[C@@H]1CCCN1C(=O)[C@@H](O)[C@H](Cc1ccccc1)NC(=O)[C@H](CC(N)=O)NC(=O)OCc1cccc2ccccc12	-	-	IC50	-	-	0.024 µM